Results of unrelated studies side by side (data: NIAID ChemDB).

All rows: whole-cell or culture tests; organism: Staphylococcus aureus

Lines come from different laboratories, so protocols vary. A number after MIC or MFC names an inhibition level or a share of isolates.

smiles	strain	read-out	value
Cn1cc(C(=O)O)c(=O)c2cc3cc(F)c(N4CCN(c5ccc(F)cc5)CC4)cc3nc21	IP8203 (quinolone-sensitive)	MIC	0.25 µg/mL
CC[C@H]1OC(=O)[C@H](C)C(=O)[C@H](C)[C@@H](O[C@@H]2O[C@H](C)C[C@H](N(C)C)[C@H]2O)[C@@]2(C)C[C@@H](C)C(=NC(C)=O)[C@H](C)C(OC/C(=C\C=C\c3ccccc3)CO2)[C@]1(C)O	29213 (erythromycin-susceptible)	MIC	0.5 µg/mL
C=CC(=O)NC[C@H]1CN(c2ccc3c(c2)-n2cccc2COC3)C(=O)O1	ATCC 49951 (SMITH)	MIC	2 µg/mL
CC[C@H]1OC(=O)[C@@](C)(F)C(=O)[C@H](C)[C@@H](O[C@@H]2O[C@H](C)C[C@H](N(C)C)[C@H]2O)[C@@]2(C)C[C@@H](C)C(=NC(C)=O)[C@H](C)[C@@H](OC/C(=N\OCc3ccc(-c4ncccn4)s3)CO2)[C@]1(C)O	27660 (erythromycin A -resistant)	MIC	0.13 µg/mL
CC[C@H]1OC(=O)[C@H](C)C(=O)[C@H](C)[C@@H](O[C@@H]2O[C@H](C)C[C@H](N(C)C)[C@H]2O)[C@@]2(C)C[C@@H](C)C(=NC(C)=O)[C@H](C)C(OC/C(=C\C=C\c3ccc(F)cc3)CO2)[C@]1(C)O	29213 (erythromycin-susceptible)	MIC	0.5 µg/mL
COC(=S)NC[C@H]1CN(c2ccc3c(c2)-n2cccc2COC3)C(=O)O1	ATCC 49951 (SMITH)	MIC	0.5 µg/mL
NCCCCCCCNc1cc2c(cc1F)c(=O)c(C(=O)O)cn2C1CC1	ATCC 6538P	MIC	>100 µg/mL
CCCCCCCCCCCC[N+](C)(C)COC(C)CCCCCC	ATCC 6538	MBC	3.06 µM
CCNCCCN(CC)c1cc2c(cc1F)c(=O)c(C(=O)O)cn2C1CC1	ATCC 6538P	MIC	6.25 µg/mL
CCCCCCCCCCCC[N+](C)(C)COC(CC)CCCCC	ATCC33592	MIC	1.28 µM
CC[C@H]1OC(=O)[C@H](C)C(=O)[C@H](C)[C@@H](O[C@@H]2O[C@H](C)C[C@H](N(C)C)[C@H]2O)[C@@]2(C)C[C@@H](C)C(=NC(C)=O)[C@H](C)C(OC/C(=C\c3cnc4ccccc4c3)CO2)[C@]1(C)O	29213 (erythromycin-susceptible)	MIC	0.5 µg/mL
O=C(CCl)NC[C@H]1CN(c2ccc3c(c2)-n2cccc2COC3)C(=O)O1	ATCC 33591 (MRSA)	MIC	1 µg/mL
CCCCCCCCCCCC[N+](C)(C)COCC(CC)CCC	ATCC 6538	MBC	25.5 µM
CC[C@H]1OC(=O)[C@@](C)(F)C(=O)[C@H](C)[C@@H](O[C@@H]2O[C@H](C)C[C@H](N(C)C)[C@H]2O)[C@@]2(C)C[C@@H](C)C(=NC(C)=O)[C@H](C)[C@@H](OC/C(=N\OCc3ccc(-n4cccn4)nc3)CO2)[C@]1(C)O	33591 (erythromycin methicillin-resistant)	MIC	64 µg/mL
CC[C@H]1OC(=O)[C@H](C)C(=O)[C@H](C)[C@@H](O[C@@H]2O[C@H](C)C[C@H](N(C)C)[C@H]2O)[C@@]2(C)C[C@@H](C)C(=NC(C)=O)[C@H](C)C(OC/C(=C\c3ccccc3)CO2)[C@]1(C)O	27660 (erythromycin-resistant)	MIC	0.5 µg/mL
CC(C)C(=S)NC[C@H]1CN(c2ccc3c(c2)-n2cccc2COC3)C(=O)O1	ATCC 33591 (MRSA)	MIC	4 µg/mL
CC[C@H]1OC(=O)[C@@](C)(F)C(=O)[C@H](C)[C@@H](O[C@@H]2O[C@H](C)C[C@H](N(C)C)[C@H]2O)[C@@]2(C)C[C@@H](C)C(=NC(C)=O)[C@H](C)[C@@H](OC/C(=N\OCc3ccc4cnn(C(N)=O)c4c3)CO2)[C@]1(C)O	29213 (erythromycin A-susceptible)	MIC	0.13 µg/mL
CC[C@H]1OC(=O)[C@H](C)C(=O)[C@H](C)[C@@H](O[C@@H]2O[C@H](C)C[C@H](N(C)C)[C@H]2O)[C@@]2(C)C[C@@H](C)C(=NC(C)=O)[C@H](C)C(OC/C(=C\C=C\c3ccc(OC)cc3)CO2)[C@]1(C)O	27660 (erythromycin-resistant)	MIC	0.5 µg/mL
CC[C@H]1OC(=O)[C@H](C)C(=O)[C@H](C)[C@@H](O[C@@H]2O[C@H](C)C[C@H](N(C)C)[C@H]2O)[C@@]2(C)C[C@@H](C)C(=NC(C)=O)[C@H](C)[C@@H](OC/C(=N\OCc3ccc(-c4ncccn4)s3)CO2)[C@]1(C)O	33591 (erythromycin methicillin-resistant)	MIC	32 µg/mL
COc1ccc(CNc2cc3c(cc2F)c(=O)c(C(=O)O)cn3C2CC2)cc1OC	ATCC 6538P	MIC	>100 µg/mL
CC(C)(Br)C(=O)NC[C@H]1CN(c2ccc3c(c2)-n2cccc2COC3)C(=O)O1	ATCC 33591 (MRSA)	MIC	32 µg/mL
CCCCCCCCCCCC[N+](C)(C)CSCCCCCC	ATCC33592	MIC	13.1 µM
CCSCCNc1cc2c(cc1F)c(=O)c(C(=O)O)cn2C1CC1	ATCC 5278 (methicillin-resistant)	MIC	>100 µg/mL
CCCCC(=S)NC[C@H]1CN(c2ccc3c(c2)-n2cccc2COC3)C(=O)O1	ATCC 29213 (MSSA)	MIC	16 µg/mL
CC[C@H]1OC(=O)[C@H](C)C(=O)[C@H](C)[C@@H](O[C@@H]2O[C@H](C)C[C@H](N(C)C)[C@H]2O)[C@](C)(OC)C[C@@H](C)C(=O)[C@H](C)[C@H]2N(CCCCn3cnc(-c4cccnc4)c3)C(=O)O[C@]12C	25 strains	MIC90	>64 µg/mL
CNCCCCCCN(C)c1cc2c(cc1F)c(=O)c(C(=O)O)cn2C1CC1	ATCC 5278 (methicillin-resistant)	MIC	6.25 µg/mL
CCCCCCCCCCCCSC[N+](C)(C)CCCCCCCCCCCC	ATCC33592	MBC	53.8 µM
O=C(CBr)NC[C@H]1CN(c2ccc3c(c2)-n2cccc2COC3)C(=O)O1	ATCC 49951 (SMITH)	MIC	4 µg/mL
NCCCCNc1cc2c(cc1F)c(=O)c(C(=O)O)cn2-c1ccc(F)cc1F	ATCC 6538P	MIC	3.1 µg/mL
CC[C@H]1OC(=O)[C@@](C)(F)C(=O)[C@H](C)[C@@H](O[C@@H]2O[C@H](C)C[C@H](N(C)C)[C@H]2O)[C@@]2(C)C[C@@H](C)C(=NC(C)=O)[C@H](C)[C@@H](OC/C(=N\OCc3ccc(-c4cccc(N)n4)s3)CO2)[C@]1(C)O	33591 (erythromycin methicillin-resistant)	MIC	4 µg/mL
CC[C@H]1OC(=O)[C@H](C)C(=O)[C@H](C)[C@@H](O[C@@H]2O[C@H](C)C[C@H](N(C)C)[C@H]2O)[C@@]2(C)C[C@@H](C)C(=NC(C)=O)[C@H](C)C(OC/C(=C\C#Cc3cccnc3)CO2)[C@]1(C)O	29213 (erythromycin-susceptible)	MIC	0.25 µg/mL
COCCCNc1cc2c(cc1F)c(=O)c(C(=O)O)cn2C1CC1	ATCC 5278 (methicillin-resistant)	MIC	>100 µg/mL
CC[C@H]1OC(=O)[C@H](C)C(=O)[C@H](C)[C@@H](O[C@@H]2O[C@H](C)C[C@H](N(C)C)[C@H]2O)[C@@]2(C)C[C@@H](C)/C(=N\C(=O)OC)[C@H](C)C(OC/C(=C\C=C\c3ccccc3)CO2)[C@]1(C)O	29213 (erythromycin-susceptible)	MIC	0.5 µg/mL
CC[C@H]1OC(=O)[C@H](C)C(=O)[C@H](C)[C@@H](O[C@@H]2O[C@H](C)C[C@H](N(C)C)[C@H]2O)[C@@]2(C)C[C@@H](C)C(=NC(C)=O)[C@H](C)[C@@H](OC/C(=N\OCc3ccc(C(N)=O)s3)CO2)[C@]1(C)O	27660 (erythromycin A -resistant)	MIC	0.13 µg/mL
CCC(=S)NC[C@H]1CN(c2ccc3c(c2)-n2cccc2COC3)C(=O)O1	ATCC 33591 (MRSA)	MIC	4 µg/mL
CSCc1cccc(N2CCN(c3cc4nc5c(cc4cc3F)c(=O)c(C(=O)O)cn5C)CC2)c1	LF11C128 (quinolone-resistant)	MIC	4 µg/mL
CC[C@H]1OC(=O)[C@H](C)C(=O)[C@H](C)[C@@H](O[C@@H]2O[C@H](C)C[C@H](N(C)C)[C@H]2O)[C@@]2(C)C[C@@H](C)C(=NC(C)=O)[C@H](C)[C@@H](OC/C(=N/OCc3ccc(-c4cccc(N)n4)s3)CO2)[C@]1(C)O	33591 (erythromycin methicillin-resistant)	MIC	>64 µg/mL

A second listing of 5 rows from above:

smiles	strain	read-out	value
NCCCCNc1cc2c(cc1F)c(=O)c(C(=O)O)cn2-c1ccc(F)cc1F	ATCC 6538P	MIC	3.1 µg/mL
CC[C@H]1OC(=O)[C@H](C)C(=O)[C@H](C)[C@@H](O[C@@H]2O[C@H](C)C[C@H](N(C)C)[C@H]2O)[C@@]2(C)C[C@@H](C)/C(=N\C(=O)OC)[C@H](C)C(OC/C(=C\C=C\c3ccccc3)CO2)[C@]1(C)O	29213 (erythromycin-susceptible)	MIC	0.5 µg/mL
C=CC(=O)NC[C@H]1CN(c2ccc3c(c2)-n2cccc2COC3)C(=O)O1	ATCC 49951 (SMITH)	MIC	2 µg/mL
CC[C@H]1OC(=O)[C@@](C)(F)C(=O)[C@H](C)[C@@H](O[C@@H]2O[C@H](C)C[C@H](N(C)C)[C@H]2O)[C@@]2(C)C[C@@H](C)C(=NC(C)=O)[C@H](C)[C@@H](OC/C(=N\OCc3ccc4cnn(C(N)=O)c4c3)CO2)[C@]1(C)O	29213 (erythromycin A-susceptible)	MIC	0.13 µg/mL
CCCCCCCCCCCCSC[N+](C)(C)CCCCCCCCCCCC	ATCC33592	MBC	53.8 µM